Test results from patent publication US5872210A (priority 1995, dated 1999).
Where two headings read alike, the source gives them in different places.

Amino acid sequences for entries named in this document (tags omitted). Residues count along the entry.
UniProt P00791, 60-385: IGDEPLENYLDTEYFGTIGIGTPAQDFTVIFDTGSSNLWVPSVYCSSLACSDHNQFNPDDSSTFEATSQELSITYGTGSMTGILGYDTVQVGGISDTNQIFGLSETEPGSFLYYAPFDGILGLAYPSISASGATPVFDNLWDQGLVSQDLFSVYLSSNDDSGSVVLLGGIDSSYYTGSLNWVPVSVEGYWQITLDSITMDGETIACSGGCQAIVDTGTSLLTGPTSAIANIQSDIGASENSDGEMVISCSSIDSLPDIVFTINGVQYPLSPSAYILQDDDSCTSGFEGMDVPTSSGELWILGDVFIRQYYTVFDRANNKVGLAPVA

How the values were obtained:
HIV-1 protease [1] = biological target: T1, HIV-1 protease (Human immunodeficiency virus type 1 group M subtype B, UniProt P04585); assay: biochemical
Protocol: (§1) HIV-1 protease was obtained and its active site concentration was determined at 25° C. Purified enzyme was stored as a 5-8 μM stock solution in 50 mM NaOAc (pH 5.0), 1 mM DTT, 1 mM EDTA, 0.05% reduced Triton X-100 at -80° C. Porcine pepsin was prepared as 1-2 mg/ml in 50 mM formic acid (pH 3.0). The peptide concentrations were adjusted for their protein content.
HIV-1 protease activity was measured at 25° C. using substrate I (Lys-Ala-Arg-Val-Nle-Phe (NO2) -Glu-Ala-Nle-NH2 wherein Nle is norleucine and Phe (NO2) is 4-nitrophenylalamine). In a typical assay, 2.5 μl of enzyme was added to 97.5 μl of buffer and 2.5 mM DTT in the presence or absence of varying concentrations of inhibitor. The reaction was initiated by the addition of 10 μl of a 4 mM solution of substrate I in water and monitored by following the decrease in absorption at […] in a 100 μl spectrophotometric cell. Pepsin was assayed using substrate II (Phe-Gly-His-Phe(NO2)-Phe-Ala-PheOCH3). […] Concentrations of substrate solutions were determined spectrophotometrically at […].
The enzyme was assayed in the presence of the inhibitor in 50 mM sodium formate at pH 4.25 and 2.5 mM DTT. […] Peptides 12a and 12b were assayed at pH 4.4 and contained 0.083% and 0.02% DMSO, respectively.

HIV-1 = details: 2 mM, p24 band
HIV-1 protease [2] = biological target: T1, HIV-1 protease; assay: biochemical; details: 1M NaCl, 50 mM sodium formate, pH 4.0, 2.5 mM DTT, 25° C.
Porcine pepsin = biological target: T2, Porcine pepsin (Sus scrofa, UniProt P00791); assay: Inhibition of pepsin (substrate II); type: biochemical; details: fold higher for pepsin
T2 construct: porcine pepsinogen is converted to enzymatically active pepsin by loss of the first 44 N-terminal residues
Protocol: as §1
HIV-1 protease activity was measured at 25° C. using substrate I (Lys-Ala-Arg-Val-Nle-Phe (NO2) -Glu-Ala-Nle-NH2 wherein Nle is norleucine and Phe (NO2) is 4-nitrophenylalamine). In a typical assay, 2.5 μl of enzyme was added to 97.5 μl of buffer and 2.5 mM DTT in the presence or absence of varying concentrations of inhibitor. The reaction was initiated by the addition of 10 μl of a 4 mM solution of substrate I in water and monitored by following the decrease in absorption at […] in a 100 μl spectrophotometric cell. Pepsin was assayed using substrate II (Phe-Gly-His-Phe(NO2)-Phe-Ala-PheOCH3). The reaction was monitored by following the decrease in absorbance at 269 nm in a final volume of 110 μl of 50 mM formate buffer, pH 3.0, containing 150 mM and 160 μM enzyme and substrate, respectively, at 25° C. Concentrations of substrate solutions were determined spectrophotometrically at […].
Such selective inhibition facilitates treatment of HIV infected mammalian cells.

**Q.** With CC(C)C[C@H](NC(=O)[C@H](CC(=O)O)NC(=O)[C@@H](N)CCC(=O)O)C(=O)O [Peptide 4, Glu--Asp--Leu] as the compound, how does the Ki (HIV-1 protease [1]; 50 mM sodium formate pH 4.25, 2.5 mM DTT, substrate I 390 μM, 25° C., peptides 1, 2, 4 from apparent Km vs [I], others from 1/V vs [I]) read?
**A.** 50 ± 9 µM

**Q.** What about the Ki (HIV-1 protease [1]; 2M NaCl, 50 mM sodium formate, pH 4.0, 2.5 mM DTT, 25° C.) of the same compound?
**A.** 1000 ± 170 µM

**Q.** And the Ki (HIV-1 protease [1]; NaCl 0 M, 50 mM sodium formate pH 4.25, 2.5 mM DTT, 1/V vs [I])?
**A.** 52 ± 10 µM

**Q.** What about the Ki (HIV-1 protease [1]; NaCl 1 M, 50 mM sodium formate pH 4.25, 2.5 mM DTT, 1/V vs [I]) of the same compound?
**A.** 435 ± 65 µM

**Q.** What about the Ki (HIV-1 protease [1]; NaCl 2 M, 50 mM sodium formate pH 4.25, 2.5 mM DTT, 1/V vs [I]) of the same compound?
**A.** 1000 ± 170 µM

**Q.** And the “reduction of Gag processing” value (HIV-1; cell-extracted samples)?
**A.** 50%

**Q.** What about the “reduction of Gag processing” value (HIV-1; supernatant samples) of the same compound?
**A.** 70%

**Q.** And the Ki (HIV-1 protease [2])?
**A.** 435 ± 65 µM

**Q.** What about the “Ki for pepsin relative to Ki for HIV protease” value (Porcine pepsin) of the same compound?
**A.** about 150 fold
